Pooled drug test results. Numbers come from NIAID ChemDB, via PubChem.

Shared fields: whole-cell or culture tests; species: Vesicular stomatitis virus; endpoint: EC50

ECn is the concentration giving n% inhibition of infection, replication or growth. Neighbouring rows are from separate reports.

{"structure": "OC[C@H]1O[C@H](c2cncc(Br)c2)[C@@H](O)[C@@H]1O", "cell line": "E6SM", "method": "cytopathic effect", "result": "≥100 µg/mL"}
{"structure": "CCOC(=O)c1ccc(OCCCCc2cc(C=O)n(C)c2)cc1", "cell line": "VERO", "method": "plaque count", "result": ">55 µM"}
{"structure": "Nc1nc2c(ncn2[C@@H]2CO[C@H](CO)[C@@H](O)C2)c(=O)[nH]1", "cell line": "ESM", "method": "cytopathic effect", "result": ">200 µg/mL"}
{"structure": "OC[C@H]1O[C@H](c2cncc(Br)c2)[C@@H](O)[C@H]1O", "cell line": "E6SM", "method": "cytopathic effect", "result": "≥100 µg/mL"}
{"structure": "Nc1ncnc2c1ncn2[C@@H]1O[C@H](CO)[C@@H](O)[C@H]1N", "cell line": "PRK", "method": "cytopathic effect", "result": "≥40 µg/mL"}
{"structure": "O=c1[nH]c(=O)n(C2CC(O[N+](=O)[O-])C(CO)O2)cc1F", "cell line": "E6SM", "method": "cytopathic effect", "result": ">400 µg/mL"}
{"structure": "CO[C@H]1[C@H](O)[C@H](n2cnc3c(N)ncnc32)O[C@@H]1CO", "cell line": "PRK", "method": "cytopathic effect", "result": ">100 µg/mL"}
{"structure": "Nc1ccn([C@@H]2OC[C@H](CO)[C@H]2O)c(=O)n1", "cell line": "HeLa", "method": "cytopathic effect", "result": ">80 µg/mL"}
{"structure": "O=c1ccn(COCCO)c(=O)[nH]1", "cell line": "PRK", "method": "cytopathic effect", "result": ">400 µg/mL"}
{"structure": "OC[C@H]1O[C@@H](c2cncc(Br)c2)[C@@H](O)[C@@H]1O", "cell line": "E6SM", "method": "cytopathic effect", "result": "≥100 µg/mL"}
{"structure": "[N-]=[N+]=N[C@@H]1[C@H](O)[C@@H](CO)O[C@H]1n1cnc2c(=O)[nH]c(N)nc21", "cell line": "PRK", "method": "cytopathic effect", "result": ">200 µg/mL"}
{"structure": "Cc1cn([C@@H]2O[C@H](COP(=O)(O)O)[C@@H](O)[C@H]2O)c(=O)nc1N", "result": ">400 µg/mL"}
{"structure": "CC(=O)OCCOCn1cnc2c(Cl)nc(N)nc21", "cell line": "PRK", "method": "cytopathic effect", "result": ">400 µg/mL"}
{"structure": "Cn1cc(CCCCOc2ccc(C(=O)O)cc2)cc1C=O", "cell line": "VERO", "method": "plaque count", "result": ">380 µM"}
{"structure": "OC[C@H]1O[C@@H](c2cc(C#CBr)c(F)cc2F)C[C@@H]1O", "cell line": "E6SM", "method": "cytopathic effect", "result": ">400 µg/mL"}
{"structure": "CO[C@H]1[C@H](OC)[C@@H](CO)O[C@H]1n1cnc2c(N)ncnc21", "cell line": "PRK", "method": "cytopathic effect", "result": ">100 µg/mL"}
{"structure": "O=c1c2ncn(COC(CO)CO)c2nc2[nH]c(-c3ccccc3)cn12", "method": "cytopathic effect", "result": ">175 µg/mL"}
{"structure": "CCCCCCc1cn([C@@H]2O[C@H](COP(=O)(O)O)[C@@H](O)[C@H]2O)c(=O)nc1N", "result": ">400 µg/mL"}
{"structure": "N#Cc1cncc([C@H]2O[C@H](CO)[C@H](O)[C@@H]2O)c1", "cell line": "E6SM", "method": "cytopathic effect", "result": "≥100 µg/mL"}
{"structure": "CCCCCCc1cn([C@@H]2OC3COP(=O)(O)OC3[C@H]2O)c(=O)nc1N", "result": ">400 µg/mL"}
{"structure": "O=c1[nH]c(=O)n(COCCO)cc1Cl", "cell line": "PRK", "method": "cytopathic effect", "result": ">400 µg/mL"}
{"structure": "Nc1nc(F)nc2c1ncn2[C@@H]1C=C(CO)[C@@H](O)[C@H]1O", "cell line": "HeLa", "method": "cytopathic effect", "result": "0.4 µg/mL"}
{"structure": "Cc1cn(C2CC(O[N+](=O)[O-])C(CO)O2)c(=O)[nH]c1=O", "cell line": "E6SM", "method": "cytopathic effect", "result": ">400 µg/mL"}
{"structure": "O=c1c2ncn(COCCO)c2[nH]c2ncc(C(c3ccccc3)(c3ccccc3)c3ccccc3)n12", "method": "cytopathic effect", "result": ">16 µg/mL"}
{"structure": "NC(=O)c1cncc([C@H]2O[C@H](CO)[C@@H](O)[C@@H]2O)c1", "cell line": "E6SM", "method": "cytopathic effect", "result": "≥100 µg/mL"}
{"structure": "Cc1cn([C@@H]2OC3COP(=O)(O)OC3[C@H]2O)c(=O)nc1N", "result": ">400 µg/mL"}
{"structure": "CC(=O)OCCOCn1cnc2c(=O)n3cc(-c4ccc5ccccc5c4)[nH]c3nc21", "method": "cytopathic effect", "result": ">16 µg/mL"}
{"structure": "Nc1nc2c(ncn2[C@@H]2O[C@H](CO)[C@@H](O)[C@H]2N)c(=O)[nH]1", "cell line": "PRK", "method": "cytopathic effect", "result": ">200 µg/mL"}
{"structure": "N#Cc1cncc([C@@H]2O[C@H](CO)[C@@H](O)[C@@H]2O)c1", "cell line": "E6SM", "method": "cytopathic effect", "result": "≥100 µg/mL"}
{"structure": "Cc1cn(COCCO)c(=O)[nH]c1=O", "cell line": "PRK", "method": "cytopathic effect", "result": ">400 µg/mL"}
{"structure": "Cc1[nH]c2nc3c(ncn3COCCO[Si](C)(C)C(C)(C)C)c(=O)n2c1C(c1ccccc1)(c1ccccc1)c1ccccc1", "method": "cytopathic effect", "result": ">10 µg/mL"}
{"structure": "Cc1cn([C@@H]2OC[C@H](CO)[C@H]2O)c(=O)[nH]c1=O", "cell line": "HeLa", "method": "cytopathic effect", "result": ">80 µg/mL"}
{"structure": "[N-]=[N+]=N[C@@H]1[C@H](O)[C@@H](CO)O[C@H]1n1ccc(N)nc1=O", "cell line": "PRK", "method": "cytopathic effect", "result": ">200 µg/mL"}
{"structure": "COc1cc(Cc2cnc(-n3c(-c4ccccc4)nc4ccc(Br)cc4c3=O)nc2N)cc(OC)c1OC", "cell line": "E6SM", "method": "cytopathic effect", "result": ">80 µg/mL"}
{"structure": "Nc1nc(=O)n(COCCO)cc1[N+](=O)[O-]", "cell line": "PRK", "method": "cytopathic effect", "result": ">400 µg/mL"}
{"structure": "CCc1nc(-n2c(-c3ccccc3)nc3ccc(Br)cc3c2=O)nc(N)c1-c1ccc(Cl)cc1", "cell line": "E6SM", "method": "cytopathic effect", "result": ">16 µg/mL"}
{"structure": "NC(=S)c1cncc([C@@H]2O[C@H](CO)[C@@H](O)[C@@H]2O)c1", "cell line": "E6SM", "method": "cytopathic effect", "result": "≥100 µg/mL"}
{"structure": "CCc1cc([C@H]2C[C@H](O)[C@@H](CO)O2)c(F)cc1F", "cell line": "E6SM", "method": "cytopathic effect", "result": ">400 µg/mL"}
{"structure": "O=c1[nH]c(=O)n(COCCO)cc1[N+](=O)[O-]", "cell line": "PRK", "method": "cytopathic effect", "result": ">400 µg/mL"}
{"structure": "Cc1cn([C@@H]2OC[C@H](CO)[C@H]2N=[N+]=[N-])c(=O)[nH]c1=O", "cell line": "E6SM", "method": "cytopathic effect", "result": ">80 µg/mL"}